Compound potency records, mixed from different reports. Data source: NIAID ChemDB in PubChem.

Shared fields: tests in culture; agent: Hepatitis C virus; read-out: EC50

Blank or dashed fields: not listed here.

compound,strain,read by,conditions,value
O=C(Nc1cccc(-c2cc(-c3c(Cl)cccc3C3CC3)no2)c1)C(Cl)Cl,,replicon,,≤10 µM
O=C(O)c1sc(-c2ccc(-c3cc4ncccn4n3)cc2)cc1N(C(=O)C1CCC(C(F)(F)F)CC1)C1CCOCC1,1a,replicon / ELISA,,0.01–0.049 µM
O=C(O)c1c(-c2ccc[nH]c2=O)c2c3occc3c(F)cc2n1Cc1nc(C2CC2)ccc1F,,replicon,,<0.5 µM
O=C(O)c1sc(-c2ccc(-c3cn4ccccc4n3)cc2)cc1N(C(=O)C1CCC(C(F)(F)F)CC1)C1CCOCC1,1a,replicon / ELISA,,0.05–0.099 µM
CC1(C)CCCCc2cccc3c2CN(C3)C(=O)O[C@@H]2C[C@@H](C(=O)NC3B(O)OC[C@@H]3C3CC3)N(C2)C(=O)[C@H](C(C)(C)C)NC(=O)OC1,,replicon,genotype 1b,4.2 µM
CN1CCN(c2cc3c(cc2F)c(=O)c(-c2noc(Cc4ccc(F)cc4)n2)cn3Cc2ccc(C(F)(F)F)cc2F)CC1,1b,replicon,,>10 µM
CC1(C)CC(=O)C2=C(C1)Nc1c(O)cccc1N(C(=O)CCC(N)=O)C2c1ccc(OCc2ccccc2)cc1Cl,1b,luciferase / reporter gene / replicon,,6.78 µM
O=c1c(-c2noc(Cc3ccccc3)n2)cn(Cc2ccc(C(F)(F)F)cc2)c2cc(N3CCNCC3)c(F)cc12,1b,replicon,,<0.5 µM
CC(C)N(C(=O)c1ccc(Cl)cc1F)c1cc(-c2ccccc2)sc1C(=O)O,1b,luciferase / replicon,,1–5 µM
COC(=O)N[C@@H](C(=O)N1CCC[C@@H]1c1ncc(-c2cnc(-c3cnc(-c4cnc([C@H]5CCCN5C(=O)[C@H](NC(=O)OC)c5ccccc5)[nH]4)cn3)cn2)[nH]1)c1ccccc1,1b,,,0.001–0.099 µM
O=C1N[C@H]2C(=O)N[C@H]3C(=O)N[C@H](C(=O)N[C@H](C(=O)O)c4cc(O)cc(O)c4-c4cc3ccc4O)[C@H](O)c3ccc(c(Cl)c3)Oc3cc2cc(c3O)Oc2ccc(cc2Cl)C[C@H]2NC(=O)[C@H](Nc3ccc(-c4ccccc4)cc3)c3ccc(O)c(c3)Oc3cc(O)cc(c3)[C@@H]1NC2=O,Huh Mono,luciferase,,5.1 µM
O=C(Nc1cccc(-c2cc(-c3c(Cl)cc(OCCCN4CCOCC4)cc3Cl)no2)c1)C(Cl)Cl,,replicon,,≤10 µM
CCCCCCCCOc1ccc(N(C(=O)COC(C)=O)c2nc(-c3cccnc3)cs2)cc1C(F)(F)F,,,,<1 µM
COC(=O)N[C@@H](C(=O)N1CCC[C@H]1c1ncc(-c2ccc(-c3ccc(-c4cnc([C@@H]5CCCN5C(=O)[C@H]5CCCO5)[nH]4)cc3C)cc2)[nH]1)c1ccccc1,1b,,,0.00001–0.000999 µM
Nc1n[nH]c2cc(F)c(Cn3c(C(=O)O)c(-c4ccc[nH]c4=O)c4c5occc5c(F)cc43)cc12,,replicon,,<0.5 µM
COc1cc(OC)c(CCC2(C3CCCC3)CC(O)=C(Sc3nc4nc(C)cc(C)n4n3)C(=O)O2)cc1Cl,M423T,replicon,,201 µM
CC(C)C(=O)N1c2cccc(O)c2NC2=C(C(=O)CC(C)(C)C2)C1c1ccc(OCc2cccc(F)c2)cc1F,1b,luciferase / reporter gene / replicon,,1.53 µM
CC1CCC(C(=O)N(CC2CCOCC2)c2cc(-c3ccc(-c4cc5ncccc5o4)cc3)sc2C(=O)O)CC1,1b,replicon / ELISA,,0.001–0.0049 µM
CC1(C)CC(=O)C2=C(C1)Nc1c(O)cccc1N(C(=O)c1ncc(F)cc1F)C2c1ccc(OCc2ccccc2)cc1F,1b,luciferase / reporter gene / replicon,,0.22 µM
COC(=O)N[C@@H](C(=O)N[C@@H](C)c1ncc(-c2ccc(-c3ccc(-c4cnc([C@H]5CCCN5C(=O)[C@H](NC(=O)OC)c5ccccc5)[nH]4)nn3)cc2)[nH]1)c1ccccc1,1b,,,0.001–0.099 µM
CCOc1nc(NCc2ccc(F)cc2)nc2ccc(-c3ccc(NC(N)=O)cc3)nc12,,replicon,,<0.1 µM
C[C@@H](c1ncc(-c2ccc(-c3ncc(-c4cnc([C@H]5CCCN5C(=O)[C@@H](c5ccccc5)N(C)C)[nH]4)cn3)cc2)[nH]1)N(C)C(=O)[C@@H](c1ccccc1)N(C)C,1b,,,0.001–0.099 µM
CC1(C)CC(=O)C2=C(C1)Nc1c(O)cccc1N(C(=O)CC(=O)O)C2c1ccc(Oc2ccccc2Br)cc1Cl,1b,luciferase / reporter gene / replicon,,>100 µM
COC(=O)N[C@H](C(=O)N1CCC[C@@H]1C1=NCC(c2cnc(-c3ccc(-c4cnc([C@H]5CCCN5C(=O)[C@@H](NC(=O)OC)[C@@H](C)OC)[nH]4)c(F)c3)nc2)=N1)[C@@H](C)OC,1b,,,0.00001–0.000999 µM
CCCCCOc1ccc(N(C(=O)NC(C)(C)C)c2nc(-c3cccnc3)cs2)cc1C(F)(F)F,,,,<1 µM
CB1OCCC1NC(=O)[C@@H]1C[C@@H]2CN1C(=O)[C@H](C(C)(C)C)NC(=O)OCC(C)(C)CCCCc1cccc3c1CN(C3)C(=O)O2,,replicon,genotype 1a,11 µM
O=C(O)c1sc(-c2ccc(-c3cc4ncccn4n3)cc2)cc1N(C(=O)c1ccc(Cl)cc1Cl)C1CCOCC1,1b,luciferase / replicon,,0.01–0.05 µM
CC1CCC(C(=O)N(c2cc(-c3ccc(-c4cc5ncccn5n4)cc3)sc2C(=O)O)C2CCOC2)CC1,1a,replicon / ELISA,,0.005–0.0099 µM
C[C@@H]1COc2c1ccc1c2c(-c2ccc[nH]c2=O)c(C(=O)NS(=O)(=O)C2CC2)n1Cc1cc(F)ccc1F,,replicon,,<0.5 µM
COC(=O)N[C@H](C(=O)N1CCC[C@@H]1c1ncc(-c2ccc(-c3ccc(-c4cnc([C@@]5(C)CCCN5C(=O)[C@@H](Nc5ncccn5)C(C)C)[nH]4)cc3)cc2)[nH]1)C(C)C,1b,,,0.00001–0.000999 µM
Cc1cccnc1C(=O)N1c2cccc(O)c2NC2=C(C(=O)CC(C)(C)C2)C1c1ccc(OCc2ccccc2)cc1F,1b,luciferase / reporter gene / replicon,,1.12 µM
Nc1noc2ccc(Cn3c(C(=O)NS(=O)(=O)C4CC4)c(-c4ccc[nH]c4=O)c4c5occc5c(F)cc43)cc12,,replicon,,<0.5 µM
O=C(Nc1cc(-c2cc(-c3c(Cl)cccc3Cl)no2)ccc1F)C(Cl)Cl,,replicon,,≤10 µM
COC(=O)N[C@@H](C(=O)N1CCC[C@@H]1c1ncc(-c2ccc(-c3ccc(-c4cnc([C@H]5CCCN5C(=O)[C@H](NC(=O)OC)c5ccccc5)[nH]4)nn3)cc2)[nH]1)c1ccccc1,1b,,,0.001–0.099 µM
COCCNC(=O)CCC(=O)N1c2cccc(O)c2NC2=C(C(=O)CC(C)(C)C2)C1c1ccc(OCc2ccccc2)cc1Cl,1b,luciferase / reporter gene / replicon,,24.74 µM
O=C(Nc1cccc(-c2cc(-c3c(Cl)cccc3OCCN3CCCCC3)no2)c1)C(Cl)Cl,,replicon,,≤10 µM
CC1CCC(C(=O)N(c2cc(-c3ccc(-c4cc5ncccc5o4)cc3)sc2C(=O)O)C2CCOCC2)CC1,1b,replicon / ELISA,,<0.001 µM
CS(=O)(=O)Nc1ccc(CNc2nc(NCC(F)(F)F)c3nc(-c4ccc(F)cc4)ccc3n2)cc1,,replicon,,<0.1 µM
O=C(O)c1c(-c2ccc[nH]c2=O)c2c3occc3c(F)cc2n1Cc1cc2ccccc2nc1Cl,,replicon,,<0.5 µM
CCCCCOc1ccc(N(C(N)=O)c2nc(-c3cccnc3)cs2)cc1C(F)(F)F,,,,<1 µM
CC(C)(c1ccccc1)c1nc(-c2cn(Cc3ccc(F)cc3)c3cc(N4CCS(=O)(=O)CC4)c(F)cc3c2=O)no1,1b,replicon,,<0.5 µM
CC1(C)CC(=O)C2=C(C1)Nc1c(O)cccc1NC2c1ccc(-c2ccccc2)cc1,1b,luciferase / reporter gene / replicon,,25.33 µM
CCCc1nc(NCc2ccc(S(N)(=O)=O)cc2)nc2ccc(-c3ccc(F)cc3)nc12,,replicon,,<0.1 µM
CC1(C)CC(=O)C2=C(C1)Nc1c(O)cccc1NC2c1ccccc1Cl,1b,luciferase / reporter gene / replicon,,>100 µM
C[C@H](c1ccccc1)n1cc(-c2noc(C(C)(C)c3ccccc3)n2)c(=O)c2cc(F)c(N3CCOCC3)cc21,1b,replicon,,<0.5 µM
O=C(NS(=O)(=O)C1CC1)c1c(-c2ccc[nH]c2=O)c2c3c(ccc2n1Cc1cc(F)ccc1F)CCCO3,,replicon,,<1 µM
CCOc1nc(NCc2ccc(S(N)(=O)=O)cc2)nc2ccc(-c3cccc(NS(=O)(=O)N(C)C)c3)nc12,,replicon,,<0.1 µM
Cc1ccc(C(=O)N(c2cc(-c3ccc(-c4cc5ncccn5n4)cc3)sc2C(=O)O)C(C)C)c(C)c1,1a,replicon / ELISA,,0.1–0.5 µM
CCCCCCOc1ccc(N(C(N)=O)c2nc(-c3ccc(F)c(F)c3)cs2)cc1,,,,<1 µM
COc1nc(N)nc2c1ncn2[C@@H]1O[C@H](COP(=O)(N[C@@H](C)C(=O)OC(C)C)Oc2ccccc2)[C@@H](O)[C@@]1(C)F,2a,replicon,17 d,0.019 µM
Cc1c(NC(=O)C(Cl)Cl)cccc1-c1cc(-c2c(Cl)cccc2Cl)no1,,replicon,,>10 µM
CCCCCOc1ccc(N(C(=O)C2CCCCC2)c2nc(-c3ccccn3)cs2)cc1C(F)(F)F,,,,<1 µM
O=C(O)c1sc(-c2ccc(-c3cc4ncccc4o3)cc2)cc1N(C(=O)C1CCC(C(F)(F)F)CC1)C1CCOCC1,1b,replicon / ELISA,,0.01–0.049 µM
CC(C)N(C(=O)c1ccc(Cl)cc1Cl)c1cc(-c2ccc(-c3nn[nH]n3)cc2)sc1C(=O)O,1a,luciferase / replicon,,>5 µM
COC(=O)N[C@@H](C)C(=O)N(C)[C@@H](C)c1ncc(-c2ccc(-c3ccc(-c4nc([C@H]5CCCN5C(=O)[C@H](C)NC(=O)OC)[nH]c4C(F)(F)F)cc3)cc2)[nH]1,1b,,,0.00001–0.000999 µM
O=C(CI)Nc1cccc(-c2cc(-c3c(Cl)cccc3Cl)no2)c1,,replicon,,≤10 µM
CC(C)Cc1nc(-c2cn(CC3CCCCC3)c3cc(N4CCN(C)CC4)c(F)cc3c2=O)no1,1b,replicon,,>10 µM
CC(C)c1ccccc1-c1cc(-c2cccc(N(C)C(=O)C(Cl)Cl)c2)on1,,replicon,,≤10 µM
CCCCCCCCOc1ccc(N(C(=O)CCC(=O)O)c2nc(-c3cccnc3)cs2)cc1C(F)(F)F.[Na+],,,,<1 µM
CN1CCN(c2cc3c(cc2F)c(=O)c(-c2noc(Cc4ccccc4)n2)cn3Cc2ccc(Cl)cc2)CC1,1b,replicon,,<2 µM
COCC(C)N(C(=O)c1ccc(Cl)cc1Cl)c1cc(-c2ccccc2)sc1C(=O)O,1b,replicon / ELISA,,1–5 µM
CC1CCC(C(=O)N(CC2CCOCC2)c2cc(-c3ccc(-c4nc5ncccc5o4)cc3)sc2C(=O)O)CC1,1b,replicon / ELISA,,0.01–0.049 µM
O=C(O)CCC(=O)N(c1ccc(OCCCCc2cccs2)c(C(F)(F)F)c1)c1nc(-c2cccnc2)c(F)s1,,,,<1 µM

For reference, 7 entries again:

compound	strain	read by	conditions	value
CS(=O)(=O)Nc1ccc(CNc2nc(NCC(F)(F)F)c3nc(-c4ccc(F)cc4)ccc3n2)cc1		replicon		<0.1 µM
O=C(CI)Nc1cccc(-c2cc(-c3c(Cl)cccc3Cl)no2)c1		replicon		≤10 µM
CC1(C)CCCCc2cccc3c2CN(C3)C(=O)O[C@@H]2C[C@@H](C(=O)NC3B(O)OC[C@@H]3C3CC3)N(C2)C(=O)[C@H](C(C)(C)C)NC(=O)OC1		replicon	genotype 1b	4.2 µM
CCCCCOc1ccc(N(C(N)=O)c2nc(-c3cccnc3)cs2)cc1C(F)(F)F				<1 µM
COC(=O)N[C@@H](C(=O)N1CCC[C@@H]1c1ncc(-c2ccc(-c3ccc(-c4cnc([C@H]5CCCN5C(=O)[C@H](NC(=O)OC)c5ccccc5)[nH]4)nn3)cc2)[nH]1)c1ccccc1	1b			0.001–0.099 µM
CN1CCN(c2cc3c(cc2F)c(=O)c(-c2noc(Cc4ccc(F)cc4)n2)cn3Cc2ccc(C(F)(F)F)cc2F)CC1	1b	replicon		>10 µM
CN1CCN(c2cc3c(cc2F)c(=O)c(-c2noc(Cc4ccccc4)n2)cn3Cc2ccc(Cl)cc2)CC1	1b	replicon		<2 µM

ECn is the concentration giving n% inhibition of infection, replication or growth. Two numbers with a dash give a range or band. Lines come from different laboratories, so protocols vary.